A mixed list of measured activities; the numbers were collected in NIAID ChemDB.

All rows: tests on isolated targets; organism: HIV; target: Reverse transcriptase

Lines come from different laboratories, so protocols vary. ICn is the concentration giving n% inhibition. Fold resistance has wild type as its base. Percent inhibition refers to the dose given; in toxicity tests it is the harm to the cells. Blank or dashed fields: not listed here.

smiles | method | changes | endpoint | dose | result
Nc1ccn([C@@H]2CS[C@H](COP(=O)(O)OP(=O)(O)OP(=O)(O)O)O2)c(=O)n1 | - | - | Ki | - | 2 µM
CCOCn1c(Cc2ccccc2)c(C(C)C)c(=O)[nH]c1=O | RT activity | RT-V106A P225H | Ki | - | 0.73 µM
CC(C)=CCOc1cc(NC(=S)c2ccoc2C)ccc1Cl | nucleotide incorporation / radiometric | RT-N137Y | IC50 | - | 0.02 µM
Cc1c(C(C)c2c(F)cccc2F)nc(NC2CCCC2)[nH]c1=O | nucleotide incorporation / radiometric | RT-K103N | IC50 | - | 0.08 µM
Cc1c(Sc2ccccc2)n(COCCO)c(=O)[nH]c1=O | - | RT-K103N Y188L | fold resistance | - | >10
CO[P@](=O)(c1cc(C)cc(/C=C/C#N)c1)c1c(C(N)=O)[nH]c2ccc(Cl)c(F)c12 | - | - | IC50 | - | <0.366 µM
Cc1cn([C@@H]2O[C@H](CO[Si](C)(C)C(C)(C)C)C3(OS(=O)(=O)C=C3N)[C@H]2O[Si](C)(C)C(C)(C)C)c(=O)n(C)c1=O | nucleotide incorporation | RT-Y181C | fold resistance | - | >183
CCc1cc(C(=O)OC)c(NC(=S)Nc2nc3cc(C)c(C)cc3s2)s1 | nucleotide incorporation | - | inhibition | 10 µM | 83%
Nc1nc2c(ncn2[C@H]2CC[C@@H](COP(=O)(O)OP(=O)(O)OP(=O)(O)O)O2)c(=O)[nH]1 | nucleotide incorporation / radiometric | RT-N137S | fold resistance | - | 7.8
Nc1ncnc2c1ncn2[C@@H]1O[C@H](OCP(=O)(O)OP(=O)(O)OP(=O)(O)O)C=C1F | - | - | Ki | - | 0.8 µM
Cc1cn([C@@H]2O[C@H](CO[Si](C)(C)C(C)(C)C)C3(OS(=O)(=O)C=C3N)[C@H]2O[Si](C)(C)C(C)(C)C)c(=O)n(C)c1=O | nucleotide incorporation | RT-E138K | inhibition | 150 µM | 23%
CC(C)Nc1cccnc1N1CCN(C(=O)c2cc3ccccc3[nH]2)CC1 | nucleotide incorporation | RT-Y181C | IC50 | - | 37 µM
COc1ccc2c(c1)N(C(=O)OC(C)C)[C@@H](CSC)C(=S)N2 | RT activity | RT-D67N K70R T215F K219Q Y188H | IC50 | - | 0.028 µg/mL
Cc1cn([C@H]2C=C[C@@H](COP(=O)(O)OP(=O)(O)OP(=O)(O)O)O2)c(=O)[nH]c1=O | - | - | Ki | - | 0.06 µM
Cc1cn([C@@H]2O[C@H](CO[Si](C)(C)C(C)(C)C)C3(OS(=O)(=O)C=C3N)[C@H]2O[Si](C)(C)C(C)(C)C)c(=O)n(C)c1=O | nucleotide incorporation / radiometric | RT-N137D | IC50 | - | 1.2 µM
C[C@H](Cn1cnc2c(N)ncnc21)OCP(=O)(O)OP(=O)(O)OP(=O)(O)O | - | - | Ki | - | 0.18 µM
Nc1nc2c(ncn2[C@H]2CC[C@@H](COP(=O)(O)OP(=O)(O)OP(=O)(O)O)O2)c(=O)[nH]1 | nucleotide incorporation | RT-Y181C | fold resistance | - | 0.375

Repeating the final 2 entries:

smiles,method,changes,endpoint,dose,result
C[C@H](Cn1cnc2c(N)ncnc21)OCP(=O)(O)OP(=O)(O)OP(=O)(O)O,-,-,Ki,-,0.18 µM
Nc1nc2c(ncn2[C@H]2CC[C@@H](COP(=O)(O)OP(=O)(O)OP(=O)(O)O)O2)c(=O)[nH]1,nucleotide incorporation,RT-Y181C,fold resistance,-,0.375